A mixed list of measured activities; the numbers were collected in NIAID ChemDB.

Shared fields: whole-cell or culture tests

MIC50, MIC90 and the like: level of inhibition, or share of isolates inhibited. Blank or dashed fields: not listed here. Inhibition is in % at the dose shown (toxicity tests: loss of growth or viability). Neighbouring rows are from separate reports. Two numbers with a dash give a range or band.

structure | measure | strain or isolate | agent | conditions | dose | read by | value
CO[C@H]1/C=C/O[C@@]2(C)Oc3c(C)c(O)c4c(=O)c(c5oc6cc(N7CCN(CC(C)C)CC7)cc(=O)c6nc5c4c3=C2O)NC(=O)/C(C)=C\C=C\[C@H](C)[C@H](O)[C@@H](C)[C@@H](O)[C@@H](C)[C@H](OC(C)=O)[C@@H]1C | MIC | N-961 (HIV+) | Mycobacterium avium complex | - | - | - | 0.05 µg/mL
O=C(NCCc1cc(F)cc2c1OCOC2)c1c(Cl)nc2ccccn12 | MIC50 | - | Mycobacterium ulcerans | - | - | fluorescence | 1–10 µg/mL
CCc1nc2cc(F)ccn2c1C(=O)NCc1ccc(N2CCN(c3ccc(OCC(F)(F)F)nc3)[C@@H](C)C2)c(F)c1.Cl | inhibition | - | Mycobacterium avium | - | 0.011 µM | fluorescence | 85%
CCOC(=O)C[C@H](NC(=O)Nc1ccc(Cl)cc1)C1O[C@@H]2OC(C)(C)O[C@@H]2[C@H]1Oc1ccccc1 | MIC | - | Mycobacterium aurum | - | - | - | >25 µg/mL
CC(C)=NNC(=O)c1c(C)nc2cc(C)ccn12 | MIC50 | - | Mycobacterium ulcerans | - | - | fluorescence | >10 µg/mL
C[C@@H]1CN(c2c(F)c(N)c3c(=O)c(C(=O)O)cn(C4CC4)c3c2F)C[C@H](C)N1 | MIC | N-978 (HIV+) | Mycobacterium avium complex | - | - | - | 0.5 µg/mL
CCCCCCCCCCCCN(C(=O)NCc1ccccc1)[C@@H](CC(=O)OCC)C1O[C@@H]2OC(C)(C)O[C@@H]2[C@H]1Oc1ccccc1 | MIC | - | Mycobacterium aurum | - | - | - | >25 µg/mL
CC(C)(C)c1ccc(NC(=O)NNC(=O)c2ccncc2)cc1 | MIC100 | My 235/80 | Mycobacterium kansasii | 7 d | - | broth dilution | 32 µM
CCCCCCCN(C(=O)NCc1ccccc1)[C@@H](CC(=O)OCC)C1O[C@@H]2OC(C)(C)O[C@@H]2[C@H]1OC | MIC | - | Mycobacterium aurum | - | - | - | >25 µg/mL
CC1(C)S[C@@H]2[C@H](NC(=O)[C@H](C(=O)[O-])c3ccsc3)C(=O)N2[C@H]1C(=O)[O-].[Na+].[Na+] | MIC | CIPT 140310030 | Mycobacterium avium intracellulare | - | - | - | 50 µg/mL
CC1(C)N=C(N)N=C(N)N1OCCCOc1cc(Cl)c(Cl)cc1Cl | MIC | DW16 | Mycobacterium avium complex | - | - | - | 2 µg/mL
COc1ccc2oc(=O)n(-c3ccc(F)cc3)c(=S)c2c1 | MIC | My 235/80 | Mycobacterium kansasii | 14 d | - | - | 16 µM
O=C(NNC(=O)c1ccncc1)Nc1ccc(Br)c(F)c1 | MIC100 | My 6509/96 | Mycobacterium kansasii | 21 d | - | broth dilution | >125 µM
COc1ccc2oc(=S)n(-c3ccc(C)cc3)c(=S)c2c1 | MIC | My 235/80 | Mycobacterium kansasii | 21 d | - | - | 16 µM
Cc1cn2c(C(=O)NCc3ccc(-c4ccc(OC(C)C)cc4)c(F)c3)c(C)nc2s1 | inhibition | - | Mycobacterium avium | - | 0.37 µM | fluorescence | 85%
CCCCCCCCCCCCCCCCN(C(=O)Nc1ccc(Cl)cc1)[C@@H](CC(=O)OCC)C1O[C@@H]2OC(C)(C)O[C@@H]2[C@H]1OC | MIC | - | Mycobacterium aurum | - | - | - | >25 µg/mL
COc1ccn2nc(C)c(C(=O)NCc3cc(F)c(N4CCN(c5ccc(OC(F)(F)F)cc5)[C@@H](C)C4)c(F)c3)c2c1.Cl | inhibition | - | Mycobacterium avium | - | 0.0068 µM | fluorescence | 85%
CO[C@H]1/C=C/O[C@@]2(C)Oc3c(C)c(O)c4c(O)c(c5c(c4c3C2=O)NC2(CCN(CC(C)C)CC2)N=5)=NC(=O)/C(C)=C\C=C\[C@H](C)[C@H](O)[C@@H](C)[C@@H](O)[C@@H](C)[C@H](OC(C)=O)[C@@H]1C | MIC | CIPT 140310030 | Mycobacterium avium intracellulare | - | - | - | 0.1 µg/mL
COc1ccc(NC(=O)NNC(=O)c2ccncc2)cc1 | MIC100 | My 235/80 | Mycobacterium kansasii | 21 d | - | broth dilution | >125 µM
O=C(NCc1ccc(N2CCCC2=O)cc1)c1c(Cl)nc2ccccn12 | MIC50 | - | Mycobacterium ulcerans | - | - | fluorescence | >10 µg/mL
O=c1oc2ccc(Cl)cc2c(=S)n1-c1ccc(C(F)(F)F)cc1 | MIC | My 235/80 | Mycobacterium kansasii | 21 d | - | - | 16 µM
CO[C@H]1/C=C/O[C@@]2(C)Oc3c(C)c(O)c4c(O)c(c5c(c4c3C2=O)NC2(CCN(CC(C)C)CC2)N=5)=NC(=O)/C(C)=C\C=C\[C@H](C)[C@H](O)[C@@H](C)[C@@H](O)[C@@H](C)[C@H](OC(C)=O)[C@@H]1C | MIC | N-319 (HIV-) | Mycobacterium avium complex | - | - | - | 0.8 µg/mL
Fc1cc(Br)ccc1Nc1nnc(-c2ccncc2)o1 | MIC100 | My 235/80 | Mycobacterium kansasii | 21 d | - | broth dilution | >125 µM
Cc1cn2c(C(=O)NCc3ccc(N4CC=C(c5ccc(OC(F)(F)F)cc5)CC4)c(F)c3)c(C)nc2s1.Cl | inhibition | - | Mycobacterium avium | - | 0.34 µM | fluorescence | 85%
NNC(=O)c1ccncc1 | MIC | N-316 (HIV-) | Mycobacterium avium complex | - | - | - | 2 µg/mL
O=C(NCc1ccc(F)cc1)c1c(Cl)nc2ccccn12 | MIC50 | - | Mycobacterium ulcerans | - | - | fluorescence | 0.1–1 µg/mL
CCNC(=O)[C@@H](NC(=O)Cc1ccccc1)[C@@H]1N[C@@H](C(=O)NCCNC(=O)[C@@H]2N[C@@H]([C@H](NC(=O)Cc3ccccc3)C(=O)NCC)SC2(C)C)C(C)(C)S1 | MIC | CIPT 140310001 | Mycobacterium avium intracellulare | - | - | - | 50 µg/mL
O=C(NNC(=O)c1ccncc1)Nc1ccc(Cl)c(Cl)c1 | MIC100 | My 235/80 | Mycobacterium kansasii | 14 d | - | broth dilution | 125 µM
COc1ccn2nc(C)c(C(=O)NCc3ccc(N4CCC(c5ccc(OC(F)(F)F)cc5)CC4)c(Cl)c3)c2c1.Cl | inhibition | - | Mycobacterium avium | - | 0.018 µM | fluorescence | 85%
COc1ccc2oc(=S)n(-c3cccc(Cl)c3)c(=S)c2c1 | MIC | My 235/80 | Mycobacterium kansasii | 14 d | - | - | 16 µM
CC1(C)S[C@@H]2[C@H](NC(=O)C(C(=O)O)c3ccccc3)C(=O)N2[C@H]1C(=O)O | MIC | CIPT 140310054 | Mycobacterium avium intracellulare | - | - | - | 75 µg/mL
Cc1ccc2oc(=O)n(-c3cccc(F)c3)c(=S)c2c1 | MIC | My 235/80 | Mycobacterium kansasii | 21 d | - | - | 32 µM
O=C(NCc1ccc(C(F)(F)F)cc1Cl)c1c(Cl)nc2ccccn12 | MIC50 | - | Mycobacterium ulcerans | - | - | fluorescence | >10 µg/mL
CCCCCCCc1ccc(NC(=O)NNC(=O)c2ccncc2)cc1 | MIC100 | My 235/80 | Mycobacterium kansasii | 14 d | - | broth dilution | 125 µM
O=c1oc2ccc(Br)cc2c(=S)n1-c1cccc(F)c1 | MIC | 6509/96 | Mycobacterium kansasii | 14 d | - | - | 8 µM
CO[C@H]1/C=C/O[C@@]2(C)Oc3c(C)c(O)c4c(O)c(c5c(c4c3C2=O)NC2(CCN(CC(C)C)CC2)N=5)=NC(=O)/C(C)=C\C=C\[C@H](C)[C@H](O)[C@@H](C)[C@@H](O)[C@@H](C)[C@H](OC(C)=O)[C@@H]1C | MIC | 74 | Mycobacterium avium intracellulare | - | - | - | 0.062 µg/mL
CCCCc1ccc(NC(=O)NNC(=O)c2ccncc2)cc1 | MIC100 | My 6509/96 | Mycobacterium kansasii | 14 d | - | broth dilution | 62.5 µM

Repeating the first 4 entries:

structure | measure | strain or isolate | agent | conditions | dose | read by | value
CO[C@H]1/C=C/O[C@@]2(C)Oc3c(C)c(O)c4c(=O)c(c5oc6cc(N7CCN(CC(C)C)CC7)cc(=O)c6nc5c4c3=C2O)NC(=O)/C(C)=C\C=C\[C@H](C)[C@H](O)[C@@H](C)[C@@H](O)[C@@H](C)[C@H](OC(C)=O)[C@@H]1C | MIC | N-961 (HIV+) | Mycobacterium avium complex | - | - | - | 0.05 µg/mL
O=C(NCCc1cc(F)cc2c1OCOC2)c1c(Cl)nc2ccccn12 | MIC50 | - | Mycobacterium ulcerans | - | - | fluorescence | 1–10 µg/mL
CCc1nc2cc(F)ccn2c1C(=O)NCc1ccc(N2CCN(c3ccc(OCC(F)(F)F)nc3)[C@@H](C)C2)c(F)c1.Cl | inhibition | - | Mycobacterium avium | - | 0.011 µM | fluorescence | 85%
CCOC(=O)C[C@H](NC(=O)Nc1ccc(Cl)cc1)C1O[C@@H]2OC(C)(C)O[C@@H]2[C@H]1Oc1ccccc1 | MIC | - | Mycobacterium aurum | - | - | - | >25 µg/mL